Laboratory results as given in patent US20140377289A1, “Metallodrugs Having Improved Pharmacological Properties, and Methods of Manufacture and Use Thereof” (MetalloPharm, LLC, priority 2011, published 2014).
Read-outs that look alike come from different tables or passages of the source. Where a SMILES comes first, the peptide text is derived from it.

Test system: HCV RNA replicon in ET (luc-ubi-neo/ET) Huh7 cells
Settings: TC50/IC50

Row | Molecule | selectivity index SI50 (listed as Cu-GGHYrFK-NH2) | selectivity index SI50
1 | Cu complex of ATCUN peptide GGHYrFK, C-terminal amidated; targets stem-loop IIb of HCV IRES RNA [Cu-GGHYrFK-amide] | > 172 | –
2 | Cu-GGHGYrFK | – | >72
3 | Cu-GGHYrFKGGGYGRKKRRQRRR | – | 62
4 | Cu-GGHGYrFKGGGYGRKKRRQRRR | – | 101
5 | Cu-GGHAALEAKICHQIEYYFGDF | – | 12
6 | Cu-GGHGAALEAKICHQIEYYFGDF | – | 8.4
7 | CC[C@H](C)[C@H](NC(=O)[C@H](CC(C)C)NC(=O)[C@H](CC(C)C)NC(=O)[C@H](CC(=O)O)NC(=O)[C@@H](NC(=O)[C@H](CCC(=O)O)NC(=O)[C@H](CCCCN)NC(=O)[C@H](Cc1ccc(O)cc1)NC(=O)[C@@H](N)CCCCN)[C@@H](C)O)C(=O)N[C@@H](CC(C)C)C(=O)N[C@@H](Cc1ccccc1)C(=O)N[C@@H](CCCCN)C(=O)N[C@@H](CC(=O)O)C(=O)N[C@@H](CC(=O)O)C(=O)N[C@@H](Cc1ccc(O)cc1)C(=O)N[C@@H](Cc1ccccc1)C(=O)N[C@@H](C)C(=O)N[C@@H](CCCCN)C(=O)N[C@@H](CCCCN)C(=O)N[C@@H](CC(N)=O)C(=O)N[C@@H](CCC(=O)O)C(=O)N[C@@H](CCC(=O)O)C(=O)N[C@@H](CCCNC(=N)N)C(=O)N[C@@H](CCCCN)C(N)=O [reference compound] (H-KYKETDLLILFKDDYFAKKNEERK-NH2) | – | 1
8 | Cu-GGHKYKETDLLILFKDDYFAKKNEERKYGRKKRRQRRR | – | >60
9 | Cu-GGHGYrFKGGGKDEL | – | >110
10 | CC[C@H](C)[C@H](NC(=O)[C@H](CCCCN)NC(=O)[C@H](C)NC(=O)[C@H](CCC(=O)O)NC(=O)[C@H](CC(C)C)NC(=O)[C@H](C)NC(=O)[C@H](C)N)C(=O)N[C@@H](CS)C(=O)N[C@@H](Cc1c[nH]cn1)C(=O)N[C@@H](CCC(N)=O)C(=O)N[C@H](C(=O)N[C@@H](CCC(=O)O)C(=O)N[C@@H](Cc1ccc(O)cc1)C(=O)N[C@@H](Cc1ccc(O)cc1)C(=O)N[C@@H](Cc1ccccc1)C(=O)NCC(=O)N[C@@H](CC(=O)O)C(=O)N[C@@H](Cc1ccccc1)C(N)=O)[C@@H](C)CC [reference compound] (H-AALEAKICHQIEYYFGDF-NH2) | – | 1
11 | Cu-GGHGKYKETDLLILFKDDYFAKKNEERK | – | >55
12 | Cu-GGHGKYKETDLLILFKDDYFAKKNEERKKDEL | – | >67
13 | N=C(N)NCCC[C@@H](NC(=O)[C@@H](N)Cc1ccc(O)cc1)C(=O)N[C@@H](Cc1ccccc1)C(=O)N[C@@H](CCCCN)C(N)=O [YrFK, reference compound] | – | 1
